This is a selection; strong and weak results do not stand in their true shares. Records with an inconclusive call do not appear. Active and inactive are the calls of the source. Calls follow the shape of the full dose curve.
Experiment: qHTS Assay for Anthrax Lethal Toxin Internalization; also: nearly all actives have a fitted effect of over 50% in size
Settings: Cells, FRET ratio (460/530); at 40 µM (top of the series) unless noted
% is scaled to controls: 0 for no effect and ±100 for the full control effect.

| Compound | activity change, negative = inhibition |
| --- | --- |
| NC1CCCCC1.NP(=O)(O)N(CCCl)CCCl | inactive: -0.826% [at 8 µM] |
| N#CC1(Nc2ccccc2)CCN(CCc2ccccc2)CC1 | inactive: -18.7% |
| ClCCOP(OCCCl)OCCCl | inactive: -6.07% |
| N/C(=N\O)c1c(N)no[n+]1[O-] | inactive: 11.2% |
| O=C(O)C1(Nc2ccccc2)CCN(Cc2ccccc2)CC1 | inactive: -5.9% [at 8 µM] |
| CCOc1ncccc1C(=O)NCC1(N2CCOCC2)CCCCC1 | inactive: 11.5% |
| Fc1ccccc1NC1CCN(Cc2ccccc2)CC1 | inactive: -18.9% |

— PubChem BioAssay AID912 (National Center for Advancing Translational Sciences (NCATS), 2007)
